Anti-infective test results gathered from many reports (values: NIAID ChemDB through PubChem).

All rows: growth or infection tests; organism: HIV-1; cells: PBMC; endpoint: EC50

Neighbouring rows are from separate reports.

smiles | strain or isolate | changes | method | value
Nc1ccn([C@H]2C=C(F)[C@@H](CO)O2)c(=O)n1 |  |  |  | 0.94 µM
N#CC1=C[C@@H](n2cnc3c(=O)[nH]cnc32)O[C@H]1CO |  |  |  | 50 µM
CN1c2c(-c3ccccc3)nn(CC(=O)N/N=C/c3ccccc3F)c2-c2ccccc2S1(=O)=O | LAV-1 |  | RT activity | >100 µM
CC(=O)SCCOP(=O)(OCCSC(C)=O)OC[C@@H]1C=C[C@H](n2cc(C)c(=O)[nH]c2=O)O1 |  |  |  | 0.007 µM
O=c1cc(-c2ccc(O)cc2O)oc2cc(O)cc(O)c12 | LAV |  | RT activity | 3.3 µM
N#C[C@@H]1[C@H](O)[C@@H](n2cnc3c(=O)[nH]c(N)nc32)O[C@H]1CO |  |  |  | >100 µM
Cc1cn([C@H]2C=C[C@@H](CO)O2)c(=O)[nH]c1=O | IIIB |  | p24 | 0.018 µM
CC(=O)Nc1ccc(/C=N/NC(=O)Cn2nc(-c3ccccc3)c3c2-c2ccccc2S(=O)(=O)N3C)cc1 | LAV-1 |  | RT activity | >100 µM
COc1cc(OC)c2ccc(=O)oc2c1CC(=O)C(C)C | LAV |  | RT activity | >100 µM
Nc1nc(NC2CC2)c2ncn([C@H]3CO[C@@H](CO)O3)c2n1 | IIIB Laboratory strain |  | RT activity | 0.22 µM
Nc1ccn([C@@H]2S[C@H](CO)C=C2F)c(=O)n1 |  |  |  | 0.37 µM
Cc1ccnc(C)c1C(=O)N1CCC(C)(N2CCN([C@@H](C)c3ccc(C(F)(F)F)cc3)[C@@H](C)C2)CC1 | JR-FL |  | p24 | 0.0002 µM
CC(C)=CCOc1ccc2ccc(=O)oc2c1CC(=O)C(C)C | LAV |  | RT activity | 23.2 µM
Nc1ccn([C@@H]2O[C@H](CO)C=C2F)c(=O)n1 |  |  |  | 0.37 µM
COc1cc(/C=N/NC(=O)Cn2nc(-c3ccccc3)c3c2-c2ccccc2S(=O)(=O)N3C)cc(OC)c1OC | LAV-1 |  | RT activity | >100 µM
Cc1cn([C@@H]2C=C(C#N)[C@H](CO)O2)c(=O)[nH]c1=O |  |  |  | 38 µM
Cc1cn([C@H]2C[C@H](N=[N+]=[N-])[C@@H](CO)O2)c(=O)[nH]c1=O | 89.6 |  | p24 / ELISA | 0.01201 µM
O=C(CNC(=O)COc1ccccc1)NCc1ccc(C(=O)N2CCCCC2)cc1 | Clinical isolate | MDR769 | RT activity | 18.8 µM
CCOc1cc(/C=N/NC(=O)Cn2nc(-c3ccccc3)c3c2-c2ccccc2S(=O)(=O)N3C)ccc1O | LAV-1 |  | RT activity | 5.4 µM
CC(=Nc1ccc(O)cc1)C1Sc2ncccc2C1=O | NL4-3 |  | RT activity | 4.49 µM
C[Si](O)(O[Si](C)(CCCn1cnc2c(N)ncnc21)c1ccccc1)c1ccccc1 | IIIB |  | RT activity | 6 µM
Nc1nc(=O)n([C@@H]2C=C[C@H](CO)O2)cc1F |  |  |  | 0.51 µM
CN(C)CCCN=C(N)c1ccc(C(N)=NCCCN(C)C)cc1 | IIIB |  |  | 11 µM
CCCCCCCCCCCCCCCCCCOCCOP(=O)(O)CO[C@H](CO)Cn1cnc2c(N)ncnc21 | NRTI-MDR | M41L D67N K70R T215Y K219Q | p24 / ELISA | 0.005 µM
O=C(O)[C@H]1O[C@@H](Oc2ccc(/C=C/c3cc(O)cc(O)c3)cc2)[C@H](O)[C@@H](O)[C@@H]1O | IIIB |  | RT activity | >300 µM
CN(C)c1ccc(/C=N/NC(=O)Cn2nc(-c3ccccc3)c3c2-c2ccccc2S(=O)(=O)N3C)cc1 | LAV-1 |  | RT activity | >100 µM
[N-]=[N+]=NC[C@H]1[C@H](n2cnc3c(N)ncnc32)O[C@@H]1CO | RF |  | RT activity | 0.07 µM
COc1cc2oc(-c3ccc(O)cc3O)c(CC=C(C)C)c(=O)c2c(O)c1CC=C(C)C | LAV |  | RT activity | 2.9 µM
Cn1c2ccccc2c(=O)c2c(O)cccc21 | IIIB |  | p24 / ELISA | 1.4 µg/mL
COc1cccc2ccc(/C=C/C(=O)Nc3ccccc3F)nc12 | VB51 |  | luminescence | 5.49 µM
Nc1ccn([C@H]2CC[C@@H](CO)O2)c(=O)n1 | IIIB |  | cytopathic effect / trypan blue | 0.088 µM
Cc1ccnc2c1NC(=O)c1cccnc1N2C1CC1 | 1617-1 |  | p24 / ELISA | 0.156 µM
O=C(O)C(=O)/C=C(\O)c1cc(Cc2ccccc2)cn(Cc2ccccc2)c1=O | NL4-3 |  |  | 0.61 µM
C=C(C)C(O)Cc1c(OC)cc(OC)c2ccc(=O)oc12 | LAV |  | RT activity | >100 µM
N#C[C@@H]1[C@H](O)[C@@H](n2ccc(=O)[nH]c2=O)O[C@H]1CO |  |  |  | >100 µM
COc1c2ccoc2c(OC)c2oc(=O)ccc12 | LAV |  | RT activity | >100 µM
CCCCCCCCCCCCCCCCCCOCCOP(=O)(O)CO[C@H](CO)Cn1cnc2c(=O)[nH]c(N)nc21 | NRTI-MDR | M41L D67N K70R T215Y K219Q | p24 / ELISA | 0.005 µM
O=C(NCCO)c1c(O)c2ncc(Cc3ccc(F)cc3)cc2n(-c2ccc(F)cc2)c1=O | BaL |  | RT activity | 0.0027 µM
CCN(CC)c1ccc(/C=N/NC(=O)Cn2nc(-c3ccccc3)c3c2-c2ccccc2S(=O)(=O)N3C)cc1 | LAV-1 |  | RT activity | >100 µM
CCCCC1=NC2CC(/C=C/C(=O)NO)=CC=C2N1CCN(CC)CC |  |  | luciferase | 0.212 µM
N#CC1=C[C@@H](n2cnc3c(=O)[nH]c(N)nc32)O[C@H]1CO |  |  |  | 28 µM
[N-]=[N+]=N[C@@H]1C[C@@H](n2cc(F)c(N)nc2=O)O[C@H]1CO | LAV |  | RT activity | 0.05 µM
COc1ccc(/C=N/NC(=O)Cn2nc(-c3ccccc3)c3c2-c2ccccc2S(=O)(=O)N3C)cc1 | LAV-1 |  | RT activity | 17.1 µM
COC(=O)[C@H](C)NP(=O)(OC[C@@H]1C=C[C@H](n2cc(C)c(=O)[nH]c2=O)O1)Oc1ccc(Br)cc1 | IIIB |  | RT activity | 0.042 µM
c1ccc(CNCCc2ccc(CN3CCNCCCCCCCNCC3)cc2)nc1 | NL4-3 |  | p24 | 0.032 µg/mL
Nc1ccn([C@@H]2C=C(F)[C@H](CO)O2)c(=O)n1 |  |  |  | 0.03 µM
Cc1ccc(-c2ccc3c(c2)C=C(C(=O)Nc2ccc(C[N+](C)(C)C4CCOCC4)cc2)CCC3)cc1 | Du104 CLADE C |  | p24 | <1 µM
N#C[C@@H]1[C@H](O)[C@@H](n2cnc3c(=O)[nH]cnc32)O[C@H]1CO |  |  |  | >100 µM
CC(C)=CCC/C(C)=C/COc1ccc2ccc(=O)oc2c1 | LAV |  | RT activity | 5.7 µM
O=S(=O)([O-])OC[C@@H]1C[C@H](O)[C@@H](OS(=O)(=O)[O-])[C@H](O[C@H]2[C@H](O)[C@@H](O)[C@H](O[C@@H]3OC[C@@H](O[C@H]4[C@@H](OS(=O)(=O)[O-])[C@@H](OS(=O)(=O)[O-])[C@H](O)O[C@@H]4CO)[C@H](O)[C@H]3O)O[C@@H]2CO)O1 |  |  | p24 / ELISA | >20 µg/mL
CN(C)CCCNC(=O)CCNC(=O)c1cc(NC(=O)c2nc(NC(=O)CCNC(=O)c3cc(NC(=O)c4nc(NC(=O)CCCNC(=O)c5cc(NC(=O)c6nc(NC(=O)CCNC(=O)c7cc(NC(=O)c8nccn8C)cn7C)cn6C)cn5C)cn4C)cn3C)cn2C)cn1C | SF162 |  | p24 | >1 µM
Nc1ccn([C@H]2C=C[C@@H](CO)O2)c(=O)n1 |  |  |  | 0.005 µM
Cc1cc2ccccc2c(-c2ccc3c4c(ccnc24)CCO3)c1[C@H](OC(C)(C)C)C(=O)O | NL4-3 |  | p24 | 0.014 µM
CCCCCCCCCCCCCCCCCCOCCOP(=O)(O)CO[C@H](CO)Cn1cnc2c(N)nc(N)nc21 | LAI |  | p24 / ELISA | 0.014 µM
COc1c2ccoc2c(OCC=C(C)C)c2oc(=O)ccc12 | LAV |  | RT activity | 14.2 µM

For reference, 5 entries again:

smiles | strain or isolate | changes | method | value
CCCCCCCCCCCCCCCCCCOCCOP(=O)(O)CO[C@H](CO)Cn1cnc2c(=O)[nH]c(N)nc21 | NRTI-MDR | M41L D67N K70R T215Y K219Q | p24 / ELISA | 0.005 µM
CC(=O)SCCOP(=O)(OCCSC(C)=O)OC[C@@H]1C=C[C@H](n2cc(C)c(=O)[nH]c2=O)O1 |  |  |  | 0.007 µM
Cc1ccnc2c1NC(=O)c1cccnc1N2C1CC1 | 1617-1 |  | p24 / ELISA | 0.156 µM
CN(C)CCCN=C(N)c1ccc(C(N)=NCCCN(C)C)cc1 | IIIB |  |  | 11 µM
Nc1ccn([C@@H]2C=C(F)[C@H](CO)O2)c(=O)n1 |  |  |  | 0.03 µM

Blank or dashed fields: not listed here. ECn: concentration that inhibits the pathogen or its effect by n%.